From patent US11179663B1, “Polyurethane-based materials” (Aviro LLC, priority 2021, dated 2021)

System: COVID-19
Assay: coronavirus deactivation test after attachment to the surfaces, qPCR for genes indicative of COVID-19 activity
Conditions: Example 3, foam coated with a single antiviral compound

Benzalkonium chloride [BC] was tested, and the “% Deactivated of that captured” value was 30.1%.
